Here are results for two molecules from PMC4728507, “Bioactive Polycyclic Quinones from Marine Streptomyces sp. 182SMLY” (Marine Drugs, 2016).

Format in all cases: cell-based
One data set deals with glioma SHG-44 cells. In words: SRB assay, proliferation of glioma SHG-44 cells. Conditions: IC50 human astrocytes / IC50 SHG-44. The method, then: (§1) The compounds 1 and 2 were assayed for their activities inhibiting the proliferation of glioma C6, U251, U87-MG, and SHG-44 cells using the sulforhodamine B (SRB) assay. The SRB assay is a method that measures total cellular protein content for evaluating the activity of tested compounds against the proliferation of tumor cells. Doxorubicin (DOX) was used as a positive control. Glioma cells were treated with tested compounds for 72 h at different concentrations. […] N-acetyl-N-demethylmayamycin (1) and streptoanthraquinone A (2) were also assayed for their activity against normal human astrocytes (HA). The initial assay was conducted on the concentrations from 0.35 to 7.0 μM for 1 and on those from 1.65 to 16.5 μM for 2. The cell viability of HA cells from each tested concentration of both compounds was 100%. […]
(§2) The SRB assay was used to evaluate the activity of the isolated compounds in inhibiting the proliferation of glioma U87-MG, U251, SHG-44, and C6 cells. […] After dried, dye was dissolved in a 10 mM Tris buffer and measured at 515 nm on a microplate reader (BioTech, Winooski, VT, USA).
Background: Sulforhodamine B stains cellular protein and so reports cell mass.

For another data set, the system named is glioma U87-MG cells. In words: SRB assay, proliferation of glioma U87-MG cells. The following applies: IC50 human astrocytes / IC50 U87-MG. The method, then:
as §1, §2

For another data set, the system named is glioma U251 cells. In words: SRB assay, proliferation of glioma U251 cells. The following applies: IC50 human astrocytes / IC50 U251. The procedure:
as §1, §2

Bounds are passed on as bounds.

With `CC(=O)NC1CC(c2c(O)c3c(c4c(O)cc(C)cc24)C(=O)c2cccc(O)c2C3=O)OC(C)C1O` (stereo not drawn) [Compound 1, N-acetyl-N-demethylmayamycin], in the data set with glioma SHG-44 cells, the “Ratios of IC50HA/IC50gc, SHG-44” value was 6.4. Also, in the data set with glioma U87-MG cells, the “Ratios of IC50HA/IC50gc, U87-MG” value was 18. In addition, in the data set with glioma U251 cells, the “Ratios of IC50HA/IC50gc, U251” value amounted to 35.
For the molecule `CC(=O)OC1c2c3c(c(O)c4c2C(Cc2c(O)cc(C)cc2-4)OC1C)C(=O)c1cccc(O)c1C3=O` (stereo not drawn) [Compound 2, streptoanthraquinone A], in the data set on glioma SHG-44 cells, the “Ratios of IC50HA/IC50gc, SHG-44” value is above 16. The “Ratios of IC50HA/IC50gc, U87-MG” value with glioma U87-MG cells was above 22. Moreover, the “Ratios of IC50HA/IC50gc, U251” value in the data set with glioma U251 cells is given as above 31.
